# Where no end group is shown, it is not given here.
# Assay: Langmuir-Blodgett compression isotherms of model membrane with peptides
# Set-up: species or system Zymomonas mobilis
# Conditions: Z. mobilis phospholipid model membrane + peptide, 30 ± 1 °C
sequence,measurement,setting,value
KKIAKKFWKKFWKFWKIFKK [R10],"Mma (limiting area per molecule, Aπ→0)","extrapolated from linear part of π-A isotherm (25–40 mN/m), membranes alone 70.6",81.3 Å/molecule
same,π Collapse,membranes alone 46.4,44.2 mN/m

# Reference: publication PMC11118514, “Eminent Antimicrobial Peptide Resistance in Zymomonas mobilis: A Novel Advantage of Intrinsically Uncoupled Energetics” (Antibiotics, 2024)
